Data as given in article PMC6572795, “The pore structure of Clostridium perfringens epsilon toxin” (2019).

Biological target: trypsin-activated recombinant wild-type epsilon toxin (Etx) (Clostridium perfringens)

trypsin-activated recombinant wild-type epsilon toxin (Etx)
stoichiometry N: 7
